Data on one compound can be found in article PMC12431669, “Divergent resistance pathways amongst SARS-CoV-2 PLpro inhibitors highlight the need for scaffold diversity” (2025).

One experiment has as its system SARS-CoV-2. Conditions: read-out: efficacy in cell-based assays measuring viral replication; literature value; cited from earlier work.
In another experiment the target is SARS-CoV-2 PLpro (Severe acute respiratory syndrome coronavirus 2, UniProt P0DTD1). Briefly: Cellular FRET biosensor PLpro inhibitor assay.

As for `CCO/N=C(/c1ccc2cc(OC)ccc2c1)[C@@H]1CCCN([C@H]2CC[C@@H](O)CC2)C1`, the EC50 was 0.298 µM in the experiment with SARS-CoV-2 and 0.1 µM at SARS-CoV-2 PLpro (HEK293T PLpro-biosensor cells, 8-point titration, overnight, average of two biological replicates). For the same compound, the EC95 concentration on SARS-CoV-2 PLpro (concentration used for DMS treatment) is 3 µM.
